Record: PubChem BioAssay AID624099 (ICCB-Longwood, 2012)

Purpose: 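Human genes that papillomavirus E2 requires to repress the HPV18 LCR promoter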 (primary screen)
System: human C33A cervical carcinoma cells (HPV-negative) stably expressing BPV1 E2 and an HPV18 LCR luciferase reporter
Reagent: siRNA pool against human genes, 40 nM
Time to read-out: 72 h
Detection: 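HPV18 LCR reporter light per well, converted to plate-wise z-scores that exclude control wells, and averaged over triplicate plates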
Direction: mean z-score and z-score: higher = stronger reporter signal, weaker E2 silencing
Hit rule: 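Hit if mean z-score reaches 2 and two or more of three replicate z-scores also reach 2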
Here is a random part of about 21,000 reagents tested. Of all reagents, 497 (2.4%) got an active call. 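Higher z means weaker E2 silencing; only reporter increases were scored, and knock-downs that hurt cell survival may mask genuine repressor factors.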 Entries without a mark were called inactive. Reagents against one gene are numbered here.

Target gene | reagent | mean z-score | z-score, replicate A | z-score, replicate B | z-score, replicate C
TMA16 (GeneID 55319) | 1 | 2.67 (active) | 2.55 | 2.83 | 2.65
MAMDC2 (GeneID 256691) | 1 | -0.03 | -0.26 | -0.04 | 0.22
ELAC2 (GeneID 60528) | 1 | -0.15 | -0.54 | 0.22 | -0.12
RPL14 (GeneID 9045) | 1 | -4.61 | -4.81 | -4.47 | -4.55
KIF16B (GeneID 55614) | 1 | -0.72 | -0.9 | -0.5 | -0.75
GYPB (GeneID 2994) | 1 | 0.19 | -0.18 | 0.27 | 0.48
RHOT2 (GeneID 89941) | 1 | -0.55 | -0.74 | -0.61 | -0.31
GNAS (GeneID 2778) | 1 | 0.54 | 0.58 | 0.69 | 0.34
ITIH5 (GeneID 80760) | 1 | -0.38 | -0.76 | -0.01 | -0.36
ITIH5 (GeneID 80760) | 2 | -0.22 | -0.23 | -0.21 | -0.21
ANKRD20A9P (GeneID 284232) | 1 | -0.36 | -0.44 | -0.15 | -0.49
CSF2RB (GeneID 1439) | 1 | -0.68 | -0.52 | -0.72 | -0.79
NELFE (GeneID 7936) | 1 | -0.65 | -0.45 | -0.75 | -0.75
GAGE6 (GeneID 2578) | 1 | -1.35 | -1.51 | -1.17 | -1.38
GRK2 (GeneID 156) | 1 | 1.33 | 1.79 | 1.26 | 0.95
THAP6 (GeneID 152815) | 1 | -0.42 | -0.18 | -0.52 | -0.56
LHFPL4 (GeneID 375323) | 1 | -0.21 | -0.21 | -0.16 | -0.27
PNRC2 (GeneID 55629) | 1 | -1.02 | -1.19 | -0.76 | -1.1
TTC31 (GeneID 64427) | 1 | 0.31 | 0.28 | -0.02 | 0.69
FBXO4 (GeneID 26272) | 1 | 1.67 | 1.62 | 1.75 | 1.63
TTC9B (GeneID 148014) | 1 | 1.46 | 1.73 | 1.36 | 1.29
DDN (GeneID 23109) | 1 | 0.19 | 0.61 | -0.06 | 0.03
CD164L2 (GeneID 388611) | 1 | -0.54 | -0.58 | -0.3 | -0.76

Reformatted: results already given
{"Target gene":"RPL14 (GeneID 9045)","reagent":1,"mean z-score":-4.61,"z-score, replicate A":-4.81,"z-score, replicate B":-4.47,"z-score, replicate C":-4.55}
{"Target gene":"KIF16B (GeneID 55614)","reagent":1,"mean z-score":-0.72,"z-score, replicate A":-0.9,"z-score, replicate B":-0.5,"z-score, replicate C":-0.75}
